Share of PSTVd loop 6 variants by leaf site

Reference: Wu et al. 2024, doi:10.1371/journal.ppat.1012142.

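A pool of all variants was put on leaves of three Nicotiana benthamiana plants. Progeny were sequenced from the inoculated region (day 5), the margin of the inoculated leaf (day 10) and systemic leaves (day 12).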

PSTVd intermediate strain, loop 6: wild type UGACCGCGAG, pool pattern UNNNCGNNNG; upper and lower strand joined, each 5' to 3', the first 5 letters being the upper strand, closing pairs included.

Numbers give reads per thousand; 0 = not seen among the reads, higher = more abundant. Each site shows the three plants. "Pool" is the share in the plasmid pool used as inoculum, on the same scale. The inoculated region was read from the minus strand, the other sites from the plus strand. IR is the inoculated region, LM the leaf margin, Sys the systemic leaves. Samples held 36,220 to 57,551 reads, so the smallest values rest on one or two reads. Sequences that differ at fixed positions probably stem from PCR or sequencing errors, and defective variants can be carried along by functional ones. Wild type was 20.7 per thousand in the pool and the most common sequence in every sample (inoculated region 195, 198, 203; leaf margin 629, 591, 734; systemic leaves 942, 870, 868).

sequence,pool,IR,LM,Sys
UCAGCGCCCG,0.327,0.122 / 0.0359 / 0.111,0 / 0 / 0.0232,0 / 0 / 0
UCAGCGCCGG,0.209,0.0869 / 0.0539 / 0.0922,0 / 0 / 0,0 / 0 / 0
UCAGCGCCUG,0.183,0.0695 / 0.0539 / 0.0922,0.0276 / 0 / 0,0 / 0 / 0.0205
UCAGCGCGAG,0.222,0.122 / 0.162 / 0.0922,0.110 / 0.0252 / 0.116,0 / 0 / 0.164
UCAGCGCGAU,0.0261,0.0174 / 0.0539 / 0.0553,0.0276 / 0 / 0.0232,0 / 0 / 0
UCAGCGCGCG,0.0915,0.139 / 0.0539 / 0.0369,0 / 0 / 0,0 / 0 / 0
UCAGCGCGGG,0.222,0.104 / 0.0719 / 0.0369,0 / 0 / 0,0 / 0 / 0
UCAGCGCGUG,0.183,0.0869 / 0.0180 / 0.0369,0 / 0 / 0,0 / 0 / 0.0205
UCAGCGCUAG,0.0784,0.156 / 0.108 / 0.0922,0 / 0 / 0,0 / 0 / 0
UCAGCGCUCG,0.222,0.156 / 0.0719 / 0.0553,0 / 0 / 0.0464,0 / 0 / 0
UCAGCGCUGG,0.118,0.104 / 0.0539 / 0.0553,0.0276 / 0 / 0,0 / 0 / 0
UCAGCGCUUG,0.222,0.104 / 0.0898 / 0.0369,0.0276 / 0 / 0.0232,0 / 0 / 0
UCAGCGGAAG,0.118,0.904 / 0.736 / 0.553,0.0828 / 0 / 0.0696,0.0359 / 0.0404 / 0.0615
UCAGCGGACG,0.248,0.626 / 0.557 / 0.498,0.110 / 0.101 / 0.0696,0 / 0 / 0.0205
UCAGCGGAGA,0.0131,0 / 0 / 0,0 / 0 / 0,0 / 0 / 0
UCAGCGGAGG,0.170,0.0521 / 0.0359 / 0.0738,0.0276 / 0 / 0,0 / 0 / 0
UCAGCGGAUG,0.170,0.0348 / 0.0359 / 0.0922,0.0276 / 0 / 0.0232,0 / 0 / 0
UCAGCGGCAG,0.170,0.122 / 0.108 / 0,0 / 0 / 0,0 / 0 / 0
UCAGCGGCCG,0.144,0.139 / 0.0719 / 0.0738,0 / 0 / 0.0232,0 / 0 / 0
UCAGCGGCGG,0.170,0.174 / 0.108 / 0.0922,0.0276 / 0 / 0,0 / 0 / 0
UCAGCGGCUG,0.170,0.139 / 0.0898 / 0.111,0 / 0 / 0,0 / 0 / 0
UCAGCGGGAG,0.157,0.643 / 0.647 / 0.627,0.0828 / 0.0504 / 0.0464,0 / 0.0202 / 0.0410
UCAGCGGGCG,0.157,0.712 / 0.719 / 0.535,0 / 0.126 / 0.116,0 / 0 / 0
UCAGCGGGGC,0.0131,0 / 0 / 0,0 / 0 / 0,0 / 0 / 0
UCAGCGGGGG,0.105,0.104 / 0 / 0.0553,0.0276 / 0 / 0.0232,0 / 0 / 0
UCAGCGGGGU,0.0131,0 / 0 / 0,0 / 0 / 0,0 / 0 / 0
UCAGCGGGUG,0.327,0.139 / 0.0359 / 0.0553,0 / 0 / 0.0232,0 / 0 / 0
UCAGCGGUAG,0.222,0.122 / 0.0539 / 0.111,0 / 0 / 0.0232,0 / 0 / 0
UCAGCGGUCC,0.0131,0 / 0 / 0,0 / 0 / 0,0 / 0 / 0
UCAGCGGUCG,0.288,0.0521 / 0.0898 / 0.0922,0 / 0 / 0,0 / 0 / 0
UCAGCGGUGG,0.288,0.0521 / 0.0359 / 0.148,0.0276 / 0 / 0.0232,0 / 0 / 0
UCAGCGGUUG,0.235,0.122 / 0.0719 / 0.111,0 / 0 / 0,0 / 0 / 0
UCAGCGUAAG,0.157,0.156 / 0.108 / 0.0184,0 / 0 / 0,0 / 0 / 0.0410
UCAGCGUACG,0.288,0.0521 / 0.0898 / 0.0369,0.0276 / 0 / 0,0 / 0 / 0
UCAGCGUAGG,0.327,0.0869 / 0.0539 / 0.0369,0.0276 / 0 / 0,0 / 0 / 0
UCAGCGUAUG,0.209,0.0869 / 0.0539 / 0.0553,0.442 / 0 / 0,0 / 0 / 0
UCAGCGUCAG,0.288,0.765 / 0.575 / 0.424,0.0552 / 0.0757 / 0.0464,0 / 0 / 0
UCAGCGUCCG,0.353,0.174 / 0.0719 / 0.129,0 / 0 / 0.0696,0.0359 / 0 / 0.0615
UCAGCGUCGG,0.183,0.209 / 0.0539 / 0.0738,0 / 0 / 0.0232,0 / 0 / 0
UCAGCGUCUG,0.275,0.139 / 0.0898 / 0.0738,0 / 0 / 0,0 / 0 / 0
UCAGCGUGAG,0.209,0.0695 / 0.0898 / 0.0553,0 / 0 / 0,0 / 0 / 0
UCAGCGUGCG,0.144,0.0869 / 0.198 / 0.0922,0 / 0 / 0,0 / 0 / 0
UCAGCGUGGG,0.144,0.104 / 0.0719 / 0.0553,0 / 0 / 0.0232,0 / 0 / 0
UCAGCGUGUG,0.209,0.0695 / 0.144 / 0.0922,0 / 0 / 0.0232,0 / 0 / 0
UCAGCGUUAG,0.353,0.0869 / 0.0180 / 0.111,0.0552 / 0 / 0.0464,0 / 0 / 0
UCAGCGUUCG,0.157,0.0521 / 0.0539 / 0.0553,0.0828 / 0 / 0,0 / 0 / 0
UCAGCGUUGG,0.680,0.139 / 0.126 / 0.0369,0 / 0 / 0.0232,0 / 0.0202 / 0.0205
UCAGCGUUUG,0.418,0.0695 / 0.0539 / 0.148,0 / 0 / 0,0 / 0 / 0
UCAGCUGUGG,0.0131,0 / 0 / 0,0 / 0 / 0,0 / 0 / 0
UCAUCGAAAG,0.157,0.0521 / 0.108 / 0.0922,0.0276 / 0 / 0,0 / 0 / 0
UCAUCGAACG,0.248,0.122 / 0.144 / 0.0553,0 / 0 / 0.0232,0 / 0 / 0
UCAUCGAAGG,0.0523,0.209 / 0.0539 / 0.0184,0 / 0 / 0,0 / 0 / 0
UCAUCGAAUG,0.275,0.0348 / 0.162 / 0.0738,0 / 0 / 0.0232,0 / 0 / 0
UCAUCGACAG,0.118,0.0348 / 0.144 / 0.148,0 / 0 / 0,0 / 0 / 0
UCAUCGACCG,0.118,0.174 / 0.0359 / 0.0184,0 / 0 / 0.0232,0 / 0 / 0
UCAUCGACGG,0.222,0.191 / 0.126 / 0.0369,0 / 0 / 0.0232,0 / 0 / 0
UCAUCGACUG,0.235,0.104 / 0.0898 / 0.0738,0 / 0 / 0,0 / 0 / 0
UCAUCGAGAG,0.183,0.174 / 0.0898 / 0.0738,0 / 0 / 0.0232,0 / 0 / 0
UCAUCGAGCG,0.183,0.156 / 0.0539 / 0.0922,0 / 0 / 0.0232,0 / 0 / 0
UCAUCGAGGG,0.196,0.139 / 0.0359 / 0.111,0 / 0 / 0,0 / 0 / 0
UCAUCGAGUG,0.261,0.0869 / 0.162 / 0.0922,0 / 0 / 0,0 / 0 / 0
UCAUCGAUAG,0.222,0.156 / 0.0719 / 0.0553,0.0276 / 0 / 0.232,0 / 0 / 0
UCAUCGAUCG,0.288,0.104 / 0.0719 / 0.111,0.0276 / 0 / 0,0 / 0 / 0
UCAUCGAUGG,0.248,0.122 / 0.0719 / 0.129,0 / 0 / 0.0464,0 / 0 / 0

The last 5 entries again:

| sequence | pool | IR | LM | Sys |
|---|---|---|---|---|
| UCAUCGAGGG | 0.196 | 0.139 / 0.0359 / 0.111 | 0 / 0 / 0 | 0 / 0 / 0 |
| UCAUCGAGUG | 0.261 | 0.0869 / 0.162 / 0.0922 | 0 / 0 / 0 | 0 / 0 / 0 |
| UCAUCGAUAG | 0.222 | 0.156 / 0.0719 / 0.0553 | 0.0276 / 0 / 0.232 | 0 / 0 / 0 |
| UCAUCGAUCG | 0.288 | 0.104 / 0.0719 / 0.111 | 0.0276 / 0 / 0 | 0 / 0 / 0 |
| UCAUCGAUGG | 0.248 | 0.122 / 0.0719 / 0.129 | 0 / 0 / 0.0464 | 0 / 0 / 0 |